The data set has as its target T1, His-OpaR (Vibrio parahaemolyticus RIMD 2210633) (UniProt Q79YV4).
T1 sequence: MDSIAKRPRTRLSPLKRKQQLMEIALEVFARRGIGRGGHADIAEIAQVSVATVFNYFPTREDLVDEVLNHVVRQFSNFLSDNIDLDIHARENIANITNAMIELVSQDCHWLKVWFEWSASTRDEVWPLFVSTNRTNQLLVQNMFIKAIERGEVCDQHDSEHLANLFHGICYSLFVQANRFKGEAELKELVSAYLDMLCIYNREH
The data set is described as follows: EMSA. As to conditions: poly(dI-dC), 1 mM MgCl2; 10 mM Tris-HCl pH 7.5, 50 mM NaCl, 1 mM MgCl2, 0.5 mM EDTA, 0.5 mM DTT, 0.05 mg/ml poly(dI-dC), room temperature, 30 min; recombinant protein; residues 1-204; protein details: 6xHis (pET28a, BamHI/HindIII); label: 5' 32P; probe letters rebuilt from the primers and the genome. In general terms: A gel shift assay detects complexes by their altered migration in electrophoresis.

With “TATTACCTTACTTGCCTCTCGGAAAAGAAGTCCTAACGGAAATAACTAAGTTAAAACTCAACAAAGTATCTAACCGTATCCGAAAACATTATTCGGCAGGGTTGTATTTTGATGAACAACTAATTAATGACATTGTAGACAATAGTAATGAGTCAGGAAGTGGTGCTCGTGTAGTTCAAACCACCATTGAAAATAATTTACTTCCTAAAATTTCTCATGAAATATTGAATGCAATTCTTAATGGTAAGACGTTCGATGAAATTAATGTTAGAGGTTCAATTAAAGAACTAGAAGTCTCACTTATTTAACAAGTTTAACTCTGTAAATAATAATTGAGAGTTGCTTCATAATAACTATTATTAGTTATAAATATCGCTTAATTTAAATCTAATTTAAAGATATAAAGGAGCGTATTTAAAATGAAGTTTTTGATACATCAATCATTAATTATCATTATTCAGATAATTTAATTAATACGAAATATGTCAATTAATAATGCTCTAGGAGATTAGCATGCAGTCTAATACGTATCTTAAATACGCAGATATTAAAGGTGAAGCGACAGCGGAACAATATAAGGATTTAATTACACTACTATCTGTAGATTGGAGTGTTGGTCGTGAAATTTCTTCTTACACGGGTACAGCAATGGACCGTGAAGCA (double strand) [VPA1027 (hcp2) promoter EMSA probe]”, the binding result is on record as “binds”.

(Values after paper PMC3744643.)
